Measured values from several laboratories, pooled; numbers as filed in NIAID ChemDB.

All rows: growth or infection tests; species: HIV-1; method: cytopathic effect / MTT; read-out: EC50

Rows are shuffled and stem from different studies. ECn: concentration that inhibits the pathogen or its effect by n%. Blank or dashed fields: not listed here.

smiles | mutations | strain or isolate | conditions | cells | result
CCc1[nH]c(=S)n(Nc2cccc(C)c2)c1-c1ccccc1 |  | IIIB |  | MT-4 | 17.64 µM
O=C(O)CCCCCCCCCCCCC(=O)NC(CO[C@@H]1O[C@H](CO)[C@H](O)[C@H](O)[C@H]1O)C(=O)NCCO |  | LAI |  | CEM + CEM-SS | >100 µM
CCc1c(Cc2cc(C)cc(C)c2)n(COCC2CC=CCC2)c(=O)[nH]c1=O |  | IIIB |  | MT-4 | 0.02 µM
Nc1sccc1S(=O)(=O)c1ccccc1[N+](=O)[O-] |  | IIIB |  | CEM + CEM/O | 3.83 µg/mL
NOCc1ccc(Cl)cc1Cl |  | IIIB |  | MT-4 | 11.5 µg/mL
CC(C)CN(C[C@@H](O)[C@H](Cc1ccccc1)NC(=O)O[C@H]1CO[C@H]2OCC[C@H]21)S(=O)(=O)c1ccc2nc(N(C)CCCN(C)C)sc2c1 |  | R13025 |  | MT-4 | 0.3236 µM
CCC(C)[C@@H](C(=O)N[C@@H](Cc1ccccc1)[C@H](O)CN(CC(C)C)S(=O)(=O)c1ccc(/C=N/O)cc1)N1CCN(Cc2cccc(C(C)C)n2)C1=O |  |  | 50% human serum | MT-4 | 0.026 µM
COCCOCCOCCOCCOCCOCCOCCOCCOCCOCCOCCOCCOCCOCCOCCOCCOCCOCCOCCOCCOCCOCCOCCOCCOCCOCCOCCOCCOCCOCCOCCOCCOCCOCCOCCOCCOCCOCCOCCOCCOCCOCCOCCOCCOC(=O)CCC(=O)O[C@@H]1Cc2ccccc2[C@@H]1NC(=O)[C@H](Cc1ccccc1)C[C@H](O)CN1CCN(Cc2cccnc2)C[C@H]1C(=O)NC(C)(C)C |  | IIIB |  | MT-4 | 0.73 µM
Nc1nc(=O)n([C@H]2O[C@@H](CO)[C@@H](O)[C@H]2O)cc1F |  | IIIB |  | MT-4 | >100 µM
Cc1c(N)nc(Nc2ccc(C#N)cc2)nc1Cc1c(Cl)cccc1Cl |  |  |  | MT-4 | 45.2 µM
CC(C)CN(C[C@@H](O)[C@H](Cc1ccccc1)NC(=O)OCc1cncs1)S(=O)(=O)c1ccc2nc(N(C)C(=O)CN3CCOCC3)sc2c1 |  | IIIB |  | MT-4 | 0.0091 µM
O=C(Nc1sccc1S(=O)(=O)c1ccc(Cl)cc1)C(F)(F)F |  | IIIB |  | CEM + CEM/O | >1.6 µg/mL
Fc1ccc(Nc2nnc(Cc3ccccn3)s2)cc1Cl |  | IIIB |  | MT-4 | >100 µM
CCn1cc(C(=O)O)c(=O)c2cc(F)c(N3CCN(c4ccccc4OC)CC3)c(OC(F)F)c21 |  | NDK |  | MT-4 | 0.2 µM
CCN1Cc2cccc3[nH]c(=O)n(c23)CC1C |  | IIIB |  | MT-4 | >592 µM
Cc1ccc(S(=O)(=O)c2ccsc2NC(=O)c2ccccc2)cc1 |  | IIIB |  | CEM + CEM/O | >40 µg/mL
Cc1cccc(C)c1OCC(=O)N[C@@H](Cc1ccccc1)[C@H](O)CN(CC(C)C)S(=O)(=O)c1ccc2nc(NC(=O)C3CCN(C)CC3)sc2c1 |  | R13025 |  | MT-4 | 0.0191 µM
CCCc1c(Cc2cc(C)cc(C)c2)n(COC/C(C)=C/c2ccccc2)c(=O)[nH]c1=O | RT-Y181C | NNRTI-resistant (RT Y181C) N119 |  | MT-4 | 21 µM
CC(C)N1Cc2cccc3[nH]c(=O)n(c23)CC1C |  | IIIB |  | MT-4 | >65 µM
CC(C)CN(C[C@@H](O)[C@H](Cc1ccccc1)NC(=O)OCc1cncs1)S(=O)(=O)c1ccc2nc(NC(=O)CN3CCN(C)CC3)sc2c1 |  | R13025 |  | MT-4 | 0.0054 µM
Cc1ccc(Nc2nc(N)nc(Cc3c(Cl)cccc3Cl)c2C)cc1 |  |  |  | MT-4 | 0.004 µM
Cc1ccc(C)c(CS(=O)c2ccc(Cl)c[n+]2[O-])c1 |  | IIIB |  | C8166 | >40 µg/mL
O=C(O)c1cn(-c2ccc(Cn3cncn3)cc2)c2c(OC(F)F)c(N3CC=C(c4ccccc4)CC3)c(F)cc2c1=O |  |  |  | MOLT-4 | 0.009 µM
Nc1nc(=O)n([C@H]2O[C@@H](CO)[C@@H](O)[C@@H]2O)cc1F |  | IIIB |  | MT-4 | >100 µM
CC(=O)N(CCN1CCCC1)c1nc2ccc(S(=O)(=O)N(CC(C)C)C[C@@H](O)[C@H](Cc3ccccc3)NC(=O)O[C@H]3CO[C@H]4OCC[C@H]43)cc2s1 |  | IIIB |  | MT-4 | 0.0174 µM
CC(C)C(NC(=O)OC(C)(C)C)C(=O)O[C@H](CN1C[C@H]2CCCC[C@H]2C[C@H]1C(=O)NC(C)(C)C)[C@H](Cc1ccccc1)NC(=O)[C@H](CC(N)=O)NC(=O)c1ccc2ccccc2n1 |  | LAI |  | CEM + CEM-SS | 0.084 µM
S=c1[nH]nc(Cc2ccccn2)n1-c1cccc(Cl)c1 |  | IIIB |  | MT-4 | >100 µM
CCc1c(Cc2cc(C)cc(C)c2)n(COC/C(C)=C/c2ccccc2)c(=O)[nH]c1=O | RT-K103N Y181C | NNRTI-resistant (RT K103N Y181C) A17 |  | MT-4 | 4 µM
CC(C)(C)NC(=O)[C@@H]1C[C@@H]2CCCC[C@@H]2CN1C[C@@H](OC(=O)COc1ccc(CC(NC(=O)OC(C)(C)C)C(=O)OC(C)(C)C)cc1)[C@H](Cc1ccccc1)NC(=O)[C@H](CC(N)=O)NC(=O)c1ccc2ccccc2n1 |  | LAI |  | CEM + CEM-SS | 0.01 µM
NOCc1cc(Cl)ccc1Cl |  | IIIB |  | MT-4 | 7.96 µg/mL
Clc1cccc(Nn2cnc3c2CCCC3)c1 | RT-K103N Y181C | SO561945 (RT K103N Y181C) |  | MT-4 | >67.29 µM
CC(C)C(NC(=O)OC(C)(C)C)C(=O)O[C@@H](C[C@@H](Cc1ccccc1)C(=O)N[C@H]1c2ccccc2C[C@H]1OC(=O)C(NC(=O)OC(C)(C)C)C(C)C)CN1CCN(Cc2cccnc2)C[C@H]1C(=O)NC(C)(C)C |  | IIIB |  | MT-4 | >10 µM
CCc1c(CC2CCCc3ccccc32)n(COCC=C(C)C)c(=O)[nH]c1=O | RT-Y181C | N119 RT-Y181C NNRTI-resistant |  | MT-4 | >100 µM
CC(C)c1ccc(CS(=O)(=O)c2cccc[n+]2[O-])cc1 |  | IIIB |  | C8166 | >40 µg/mL
CC(=O)Nc1sc([N+](=O)[O-])cc1S(=O)(=O)c1ccc(F)cc1 |  | IIIB |  | CEM + CEM/O | 0.52 µg/mL
C=CCOCn1c(CC2CCCc3ccccc32)c(CC)c(=O)[nH]c1=O |  | IIIB |  | MT-4 | 4 µM
CC(C)CN(C[C@@H](O)[C@H](Cc1ccccc1)NC(=O)[C@H](C(C)C)N1CC(=O)N(Cc2ccccn2)C1=O)S(=O)(=O)c1ccc(/C=N/O)cc1 | PR-L10F V32I M46I I47V Q68E I84V | A17 (LPV-resistant) |  | MT-4 | 0.025 µM
Fc1ccc(-n2c(Cc3ccccn3)n[nH]c2=S)cc1Cl |  | IIIB |  | MT-4 | >100 µM
Nc1nc(=O)n([C@H]2O[C@@H](CO)[C@H](O)[C@H]2O)cc1F |  | IIIB |  | MT-4 | >100 µM
C=C(C)[C@@H]1CC[C@]2(C(=O)NCCCCCCCC(=O)N[C@@H](CC(C)C)[C@@H](O)CC(=O)O)CC[C@]3(C)[C@H](CC[C@@H]4[C@@]5(C)CC[C@H](O)C(C)(C)[C@@H]5CC[C@]43C)[C@@H]12 |  | LAI |  | CEM | 0.05 µM
Cc1ncn(Nc2cccc(Cl)c2)c1-c1cccc(Br)c1 | RT-K103N Y181C | SO561945 (RT K103N Y181C) |  | MT-4 | 0.97 µM
CCC(C)[C@@H](C(=O)N[C@@H](Cc1ccccc1)[C@H](O)CN(CC1CCCC1)S(=O)(=O)c1ccc(/C=N/O)cc1)N1CCN(Cc2cccnc2C)C1=O |  |  | 50% human serum | MT-4 | 0.01 µM
COCCOCCOCCOCCOCCOCCOCCOCCOCCOCCOCCOCCOCCOCCOCCOCCOCCOCCOCCOCCOCCOCCOCCOCCOCCOCCOCCOCCOCCOCCOCCOCCOCCOCCOCCOCCOCCOCCOCCOCCOCCOCCOCCOCCOC(=O)CCC(=O)O[C@H](CN1C[C@H]2CCCC[C@H]2C[C@H]1C(=O)NC(C)(C)C)[C@H](Cc1ccccc1)NC(=O)[C@H](CC(N)=O)NC(=O)c1ccc2ccccc2n1 |  | LAI |  | CEM + CEM-SS | 0.04 µM
Cc1[nH]c(=S)n(Nc2cccc(Cl)c2)c1-c1cccc(C#N)c1 |  | IIIB |  | MT-4 | ≥99.4 µM
CCc1c(Cc2cc(C)cc(C)c2)n(COC/C=C/c2ccccc2)c(=O)[nH]c1=O | RT-K103N Y181C | NNRTI-resistant (RT K103N Y181C) A17 |  | MT-4 | 10 µM
CC(C)CN(C[C@@H](O)[C@H](Cc1ccccc1)NC(=O)[C@@H](N1CCN(Cc2cccnc2)C1=O)C(C)(C)C)S(=O)(=O)c1ccc(/C=N/O)cc1 | PR-L10F V32I M46I I47V Q68E I84V | A17 (LPV-resistant) |  | MT-4 | 0.001 µM
NOCc1cccc(Cl)c1Cl |  | IIIB |  | MT-4 | 8.99 µg/mL
CCCc1c(Cc2ccccc2)n(COC/C(C)=C/c2ccccc2)c(=O)[nH]c1=O | RT-K103N Y181C | NNRTI-resistant (RT K103N Y181C) A17 |  | MT-4 | >100 µM
Cc1ccc(Cl)c(-n2c(Cc3ccccn3)n[nH]c2=S)c1 |  | IIIB |  | MT-4 | >100 µM
O=C(Nc1sc(I)cc1S(=O)(=O)c1ccc(Cl)cc1)C(F)(F)F |  | IIIB |  | CEM + CEM/O | >8 µg/mL
CC(C)CN(C[C@@H](O)[C@H](Cc1ccccc1)NC(=O)OCc1cncs1)S(=O)(=O)c1ccc2nc(NC(=O)CN3CCNCC3)sc2c1 |  | IIIB |  | MT-4 | 0.0288 µM
CCCCCCCCCCCCCC(=O)NCC(C(=O)CCCCCCCCCCCCC)C(=O)NCCNC(=O)C(O)C(O[C@@H]1O[C@H](CO)[C@H](O)[C@H](O)[C@H]1O)C(O)CO |  | LAI |  | CEM + CEM-SS | >100 µM
CC(=O)N1Cc2cccc3[nH]c(=O)n(c23)CC1C |  | IIIB |  | MT-4 | >175 µM
CC(C)CN(C[C@@H](O)[C@H](Cc1ccccc1)NC(=O)O[C@H]1CO[C@H]2OCC[C@H]21)S(=O)(=O)c1ccc2nc(NC(=O)c3ccccn3)sc2c1 |  | R13025 |  | MT-4 | 0.0076 µM
Cc1cccc(Nn2cnc(C)c2C)c1 |  | IIIB |  | MT-4 | >312 µM
NOCc1ccccc1 |  | IIIB |  | MT-4 | >82.3 µg/mL
CC(C)CN(C[C@@H](O)[C@H](Cc1ccccc1)NC(=O)[C@H](C(C)C)N1CC(=O)N(Cc2ccncc2)C1=O)S(=O)(=O)c1ccc(/C=N/O)cc1 |  |  | 50% human serum | MT-4 | 0.042 µM
CC(C)CN(C[C@@H](O)[C@H](Cc1ccccc1)NC(=O)O[C@H]1CO[C@H]2OCC[C@H]21)S(=O)(=O)c1ccc2nc(NC(=O)CN3CCCC3)sc2c1 |  | LAI |  | MT-4 | <0.05 µM
Cc1cccc(Nn2cnc(C)c2-c2cccc(C#N)c2)c1 |  | NL4-3 |  | MT-4 | >44.7 µM
O=C(O)CCCCCCCCCCCCCNC(=O)C(CO[C@@H]1O[C@H](CO)[C@H](O)[C@H](O)[C@H]1O)NC(=O)CCC(=O)O |  | LAI |  | CEM + CEM-SS | >100 µM

9 of the rows above, restated:

smiles,mutations,strain or isolate,conditions,cells,result
Cc1ccc(S(=O)(=O)c2ccsc2NC(=O)c2ccccc2)cc1,,IIIB,,CEM + CEM/O,>40 µg/mL
Cc1cccc(Nn2cnc(C)c2-c2cccc(C#N)c2)c1,,NL4-3,,MT-4,>44.7 µM
CCc1c(CC2CCCc3ccccc32)n(COCC=C(C)C)c(=O)[nH]c1=O,RT-Y181C,N119 RT-Y181C NNRTI-resistant,,MT-4,>100 µM
Nc1nc(=O)n([C@H]2O[C@@H](CO)[C@@H](O)[C@@H]2O)cc1F,,IIIB,,MT-4,>100 µM
CCc1[nH]c(=S)n(Nc2cccc(C)c2)c1-c1ccccc1,,IIIB,,MT-4,17.64 µM
CC(C)C(NC(=O)OC(C)(C)C)C(=O)O[C@@H](C[C@@H](Cc1ccccc1)C(=O)N[C@H]1c2ccccc2C[C@H]1OC(=O)C(NC(=O)OC(C)(C)C)C(C)C)CN1CCN(Cc2cccnc2)C[C@H]1C(=O)NC(C)(C)C,,IIIB,,MT-4,>10 µM
Fc1ccc(Nc2nnc(Cc3ccccn3)s2)cc1Cl,,IIIB,,MT-4,>100 µM
S=c1[nH]nc(Cc2ccccn2)n1-c1cccc(Cl)c1,,IIIB,,MT-4,>100 µM
C=CCOCn1c(CC2CCCc3ccccc32)c(CC)c(=O)[nH]c1=O,,IIIB,,MT-4,4 µM